Results taken from paper PMC4728508 (Marine Drugs, 2016).
Some compounds may have been tested in ways that are not shown here.

By UniProt entry, the sequences of proteins in these tests, tags left out. Residues count along the entry.
UniProt P04757, 26-499 limits assumed: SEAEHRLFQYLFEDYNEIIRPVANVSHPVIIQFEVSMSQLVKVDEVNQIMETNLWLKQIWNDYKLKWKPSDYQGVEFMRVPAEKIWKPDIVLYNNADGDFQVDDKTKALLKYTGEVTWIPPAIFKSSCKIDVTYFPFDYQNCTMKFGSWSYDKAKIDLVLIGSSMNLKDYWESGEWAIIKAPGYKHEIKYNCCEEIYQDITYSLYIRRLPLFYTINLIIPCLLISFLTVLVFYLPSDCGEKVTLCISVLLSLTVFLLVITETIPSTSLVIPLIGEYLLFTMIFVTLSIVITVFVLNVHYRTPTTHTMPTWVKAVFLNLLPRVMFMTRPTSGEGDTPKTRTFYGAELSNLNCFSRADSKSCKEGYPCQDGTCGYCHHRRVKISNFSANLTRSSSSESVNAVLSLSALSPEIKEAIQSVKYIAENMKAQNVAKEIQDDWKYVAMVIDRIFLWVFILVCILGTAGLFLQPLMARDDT
UniProt P12390, 25-500 limits assumed: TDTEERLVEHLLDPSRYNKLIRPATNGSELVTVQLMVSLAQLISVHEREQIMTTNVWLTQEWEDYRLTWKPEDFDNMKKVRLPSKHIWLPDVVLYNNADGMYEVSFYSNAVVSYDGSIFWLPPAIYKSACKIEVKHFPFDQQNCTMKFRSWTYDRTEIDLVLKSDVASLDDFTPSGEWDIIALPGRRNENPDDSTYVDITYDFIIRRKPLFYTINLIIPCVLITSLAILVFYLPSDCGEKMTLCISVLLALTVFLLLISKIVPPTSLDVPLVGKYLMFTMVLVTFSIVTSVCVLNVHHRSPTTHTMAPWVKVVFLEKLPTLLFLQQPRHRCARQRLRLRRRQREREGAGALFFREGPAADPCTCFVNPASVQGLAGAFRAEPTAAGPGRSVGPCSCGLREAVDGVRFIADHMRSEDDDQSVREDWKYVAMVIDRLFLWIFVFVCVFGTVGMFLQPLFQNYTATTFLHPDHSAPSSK
UniProt P17787, 26-502 limits assumed: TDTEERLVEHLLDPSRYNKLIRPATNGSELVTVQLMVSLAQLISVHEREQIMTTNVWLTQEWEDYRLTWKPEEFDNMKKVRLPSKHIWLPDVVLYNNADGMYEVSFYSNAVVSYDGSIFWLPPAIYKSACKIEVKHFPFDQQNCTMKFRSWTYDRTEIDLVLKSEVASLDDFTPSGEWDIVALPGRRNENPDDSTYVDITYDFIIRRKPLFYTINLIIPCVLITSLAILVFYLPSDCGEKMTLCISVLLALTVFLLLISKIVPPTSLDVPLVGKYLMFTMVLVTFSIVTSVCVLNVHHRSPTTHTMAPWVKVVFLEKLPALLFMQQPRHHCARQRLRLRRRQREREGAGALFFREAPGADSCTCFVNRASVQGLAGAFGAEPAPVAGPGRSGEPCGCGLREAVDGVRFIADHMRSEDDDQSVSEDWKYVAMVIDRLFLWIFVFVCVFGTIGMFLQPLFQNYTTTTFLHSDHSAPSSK
UniProt P32297, 32-505 limits assumed: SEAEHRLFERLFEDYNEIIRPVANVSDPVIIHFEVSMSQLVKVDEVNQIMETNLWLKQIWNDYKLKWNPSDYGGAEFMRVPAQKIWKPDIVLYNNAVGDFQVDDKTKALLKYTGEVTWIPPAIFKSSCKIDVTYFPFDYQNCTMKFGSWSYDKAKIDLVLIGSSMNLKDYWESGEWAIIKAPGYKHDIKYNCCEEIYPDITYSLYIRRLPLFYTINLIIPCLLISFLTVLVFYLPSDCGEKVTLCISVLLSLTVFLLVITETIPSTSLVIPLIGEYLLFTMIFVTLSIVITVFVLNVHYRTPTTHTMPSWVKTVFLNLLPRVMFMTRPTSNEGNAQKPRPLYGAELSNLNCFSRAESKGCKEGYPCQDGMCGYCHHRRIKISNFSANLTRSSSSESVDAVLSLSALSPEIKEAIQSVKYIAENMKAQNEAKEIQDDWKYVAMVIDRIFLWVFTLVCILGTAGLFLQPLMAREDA

What was measured:
[1] = molecular target: rat α3β2 nAChR (Rattus norvegicus, UniProt P04757+P12390); test: Two-electrode voltage clamp, ACh-evoked currents, rat α3β2 nAChR in Xenopus oocytes; type: cell-based
[2] = molecular target: human α3β2 nAChR (Homo sapiens, UniProt P17787+P32297); test: Two-electrode voltage clamp, ACh-evoked currents, human α3β2 nAChR in Xenopus oocytes; type: cell-based
[3] = tested on: Kunming mice; test: Mouse hot-plate test (55 °C); type: in vivo

With `CC[C@H](C)[C@@H]1NC(=O)[C@H](CCC(=O)O)NC(=O)[C@@H]2CCCN2C(=O)[C@H](Cc2c[nH]cn2)NC(=O)[C@H](CC(=O)O)NC(=O)[C@H](C(C)C)NC(=O)[C@H](CC(N)=O)NC(=O)[C@@H]2CSSC[C@H](NC(=O)CNC(=O)[C@@H](N)CCSC)C(=O)N[C@@H](CSSC[C@@H](C(=O)O)NC1=O)C(=O)N[C@@H](CO)C(=O)N[C@@H](Cc1c[nH]cn1)C(=O)N1CCC[C@H]1C(=O)N[C@@H](C)C(=O)N2` [rLvIA] the “blockade of ACh-evoked currents” value ([1]; 1 μM rLvIA, rat α3β2, 5 min pre-application, 100 μM ACh) was “More than 90%”, the “blockade of α3β2” value ([1]; 1 μM rLvIA, rat α3β2, Figure 6A) was “almost blocked α3β2 at 1 μM concentration completely” and the Target ([1]; Table 3, Activity/Target, rLvIA, This work) was “α3β2 nAChRs”. The “selectivity rat α3β2 versus α3β4” value ([1]; rLvIA compared with native LvIA) was “better selectivity in rat α3β2 than α3β4 nAChR subtypes”, the IC50 ([1]; rLvIA on rat α3β2 nAChR in Xenopus oocytes, 1-s pulse of 100 μM ACh, toxin pre-applied 5 min, −70 mV, room temperature (24 °C), 5 to 8 separate oocytes, nonlinear regression) was 161 nM and the “antagonism of α3β2 nAChR” value ([1]; rat nAChR subtypes in Xenopus laevis oocytes) was “antagonized the α3β2 nAChR subtype selectively”. For the same molecule, the “IC50” value ([1]; α3β2 nAChR subtype, abstract) was “nano-molar”, the IC50 ([2]; rLvIA on human α3β2 nAChR in Xenopus oocytes, 1-s pulse of 100 μM ACh, toxin pre-applied 5 min, −70 mV, room temperature (24 °C), 5 to 8 separate oocytes, nonlinear regression) was 46.8 nM and the “activity human versus rat α3β2” value ([2]; rLvIA, human vs rat α3β2) was “better activity in the human α3β2 nAChR than on the rat α3β2 nAChR”. The “AUC of latency versus morphine 250 nmol” value ([3]; rLvIA 10 nmol i.c.v. vs morphine 250 nmol s.c., p > 0.05) was “did not significantly differ”, the “latency time (maximum effect)” value ([3]; rLvIA 10 nmol i.c.v., 90 min after injection, 55 °C hot plate, n = 8, cut off 40 s) was 24.17 s and the “AUC of latency, 0 to 150 min, versus saline” value ([3]; rLvIA 10 nmol i.c.v., p < 0.01, n = 8) was “significant increase in AUC”.
